US20140072553A1 (MORPHOTEK, published 2014)

How the values were obtained:
human mesothelin [1] = target: T1, human mesothelin (human, UniProt Q13421 296-598); experiment: antigen panel ELISA, hybridoma supernatant on coated antigen (FIG. 2)
hen egg lysozyme [2] = target: T2, hen egg lysozyme (hen, UniProt P00698 19-147); experiment: as above
T2 construct: also called HEL
T2 sequence (looked up): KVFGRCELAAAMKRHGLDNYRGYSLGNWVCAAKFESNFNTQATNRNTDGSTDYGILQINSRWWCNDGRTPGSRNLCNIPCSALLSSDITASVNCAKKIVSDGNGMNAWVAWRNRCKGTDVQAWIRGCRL

chicken albumin [3] = target: T3, chicken albumin (chicken, UniProt P01012 2-386); experiment: as above
T3 construct: also called CAB
T3 sequence (looked up): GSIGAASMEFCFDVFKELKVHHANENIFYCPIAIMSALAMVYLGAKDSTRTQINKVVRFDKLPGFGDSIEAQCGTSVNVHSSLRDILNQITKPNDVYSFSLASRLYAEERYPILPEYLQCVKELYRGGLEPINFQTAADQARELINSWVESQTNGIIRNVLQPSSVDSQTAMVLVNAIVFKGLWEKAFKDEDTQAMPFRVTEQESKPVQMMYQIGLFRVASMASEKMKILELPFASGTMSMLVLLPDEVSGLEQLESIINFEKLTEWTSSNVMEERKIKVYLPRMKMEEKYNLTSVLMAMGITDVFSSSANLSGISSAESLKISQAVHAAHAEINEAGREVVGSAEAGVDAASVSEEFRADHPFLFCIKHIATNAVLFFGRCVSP

human GM-CSF [4] = target: T4, human GM-CSF (human, UniProt P04141 18-144); experiment: as above
bovine serum albumin [5] = target: T5, bovine serum albumin (bovine, UniProt P02769 25-607); experiment: as above
human mesothelin [6] = target: T1, human mesothelin; experiment: antigen panel ELISA, hybridoma supernatant on coated antigen (FIG. 6)
hen egg lysozyme [7] = target: T2, hen egg lysozyme; experiment: as above
chicken albumin [8] = target: T3, chicken albumin; experiment: as above
human GM-CSF [9] = target: T4, human GM-CSF; experiment: as above
bovine serum albumin [10] = target: T5, bovine serum albumin; experiment: as above

Measured: binding result

B1: human anti-SEB monoclonal antibody F10 (antibody, V domains shown)
VH: QVQLVQSGGGLVKPGGSLRLSCAASGFTFSSYSMNWVRQAPGKGLEWVSSISSSSSYIYYADSVKGRFTISRDNAKNSLYLQMNSLRAEDTAVYYCARGGVAGRTEIYYYYYGMDVWGQGTTVTVSS
VL: not shown
no binding: human mesothelin [1] | hen egg lysozyme [2] | chicken albumin [3] | human GM-CSF [4] | bovine serum albumin [5]

B2: human anti-SEB monoclonal antibody 100C9 (antibody, V domains shown)
VH: EVQLVESGGGLVQPGGSLRLSCSASGFTFSSYWMSWVRQAPGKGLEWVANIIQDGSEKYYADSVKGRLTISRDNAKNSLYLQMNSLRVDDTAVYYCARGYEGCSATRCYLYYFDYWGPGTLVTVSS
VL: SYVLTQPPSVSVSPGQTARITCSGDALPKQYTYWYQQKPGQAPVVVIYKDSERPSGIPERFSGSSSGTTVTVTISGVQAEDEADYYCQSADSSGTSLVFGGGTKLTVLG
no binding: human mesothelin [6] | hen egg lysozyme [7] | chicken albumin [8] | human GM-CSF [9] | bovine serum albumin [10]

B3: human anti-SEB monoclonal antibody 79G9 (antibody, V domains shown)
VH: EVQLEESGAGLLKPSETLSLTCAVYGGSFSGYYWSWIRQAPGKGLEWIGEIDHSGTTNYNPSLKSRVTISVETSKNQFSLRLSSVTAADSAVYYCASSGYCSHGLCPQEDWGQGTLVTVSS
VL: DIELTQSPSFLSASVGDRVAITCRASQGISNYLAWYQQKPGKAPKLLIYAAFVLQSGVPSRFSGSGSGTEFTLTISNLQPEDFATYYCQQLNSYPRAFGPGTKVDIKR
no binding: human mesothelin [6] | hen egg lysozyme [7] | chicken albumin [8] | human GM-CSF [9] | bovine serum albumin [10]
